Compound potency records, mixed from different reports. Data source: NIAID ChemDB in PubChem.

All rows: target-level tests; agent: Hepatitis C virus

ICn is the concentration giving n% inhibition. Blank or dashed fields: not listed here. Neighbouring rows are from separate reports. a–b is a range or a potency band. Inhibition is in % at the dose shown (toxicity tests: loss of growth or viability).

compound,read-out,protein,tested at,value
O=C(O)CCCC(=O)N[C@H](C(=O)N[C@@H](CCC(=O)O)C(=O)N[C@@H](CCC(=O)O)C(=O)NC1(C(=O)O)CC1)C(c1ccccc1)c1ccccc1,IC50,Nonstructural protein 3 NTPase/helicase,-,>83.5 µM
CC[C@H](NC(=O)[C@H](CC(C)C)NC(=O)[C@@H](NC(=O)[C@@H](NC(=O)[C@H](CC(=O)O)CC(=O)[C@H](CCC(=O)O)NC(C)=O)C(C)C)C(C)C)C(=O)C(=O)N1CCOCC1,Ki,NS3 protease,-,1–100 µM
CC(NC(=O)c1ccc2c(c1)nc(-c1ccoc1)n2C1CCCCC1)C(=O)Nc1cc(CC(=O)O)ccc1O,IC50,NS5B polymerase,-,0.5–5 µM
O=C(O)c1nc(-c2ccccc2NS(=O)(=O)c2ccc(C(F)(F)F)cc2)[nH]c(=O)c1O,IC50,HCV polymerase,-,<100 µM
CCC(C)[C@H](NC(=O)[C@@H](NC(=O)CCCC(=O)O)C1CCCCC1)C(=O)N[C@@H](CC1CCCCC1)C(=O)N[C@@H](CS)C(=O)O,inhibition,Nonstructural protein 3 NTPase/helicase,16.7 µM,69%
O=C(O)c1cnn2c(C3CCCCC3)c(-c3cccc(OCc4ccc(Cl)c(Cl)c4)c3)cnc12,IC50,RNA-dependent RNA polymerase,-,1–10 µM
COc1ccc(-c2ccc(N(C)C)cc2)c(-c2ccc3cc(-c4nc5cc(C(=O)O)ccc5n4C4CCCCC4)ccc3n2)c1,inhibition,NS5B polymerase,33 µM,100.4%
CCCC(NC(=O)c1ccc2c(c1)nc(-c1ccoc1)n2C1CCCCC1)C(=O)Nc1ccc(/C=C/C(=O)O)cc1,IC50,NS5B polymerase,-,<0.5 µM
O=C(O)c1cc2nccc(-c3ccccc3-c3ccsc3)n2n1,IC50,RNA-dependent RNA polymerase,-,1–10 µM
O=C(O)/C=C/c1ccc(NC(=O)C2(NC(=O)c3ccc4c(c3)nc(-c3ccccn3)n4C3CCCCC3)CCCC2)cc1,IC50,NS5B polymerase,-,<0.5 µM
CC[C@@H](C=O)NC(=O)[C@@H]1C[C@@H](OC(=O)Nc2c(Cl)cccc2Cl)CN1C(=O)[C@@H](NC(=O)[C@@H](NC(=O)c1cnccn1)C(C)C)C(C)C,Ki,NS3 protease,-,1–100 µM
CC[C@H](C)[C@H](NC(=O)[C@H](CC(C)C)NC(=O)CCC(=O)O)C(=O)N[C@@H](CC1CCCCC1)C(=O)NC1(C(=O)O)CC1,inhibition,Nonstructural protein 3 NTPase/helicase,83.5 µM,7%
O=C(O)c1ccc2c(c1)nc(-c1ccc3nc(-c4cc(O)cc(O)c4)ccc3c1)n2C1CCCCC1,inhibition,NS5B polymerase,33 µM,94.33%
CNC(=O)c1c(-c2ccc(F)cc2)oc2cc(N(Cc3c(C)noc3C)S(C)(=O)=O)c(OC)cc12,IC50,Nonstructural protein 5B,-,≤0.5 µM
Cc1noc(C)c1-c1cnc2c(C(=O)O)cnn2c1C1CCCCC1,IC50,RNA-dependent RNA polymerase,-,>10 µM
O=C(NC1(C(=O)Nc2ccc(-c3ccc(O)cc3)cc2)CCCC1)c1ccc2c(c1)nc(-c1ccoc1)n2C1CCCCC1,IC50,NS5B polymerase,-,0.5–5 µM
CCC(CC)n1c(-c2ccc3nc(-c4cc(OC)ccc4-c4ccc(Cl)cc4)ccc3c2)nc2cc(C(=O)O)ccc21,inhibition,NS5B polymerase,33 µM,102%
O=C(NCc1ccccc1F)Nc1cscc1-c1nc(C(=O)O)c(O)c(=O)[nH]1,IC50,HCV polymerase,-,<25 µM
C[C@H]1CCC[C@H](C)C1n1c(-c2cccs2)nc2cc(C(=O)NC3(C(=O)Nc4ccc(/C=C/C(=O)O)cc4)CCCC3)ccc21,IC50,NS5B polymerase,-,<0.5 µM
CCCC(=O)N(Cc1cccc(C)c1)c1cc(-c2ccccc2)sc1C(=O)O,IC50,NS3 ATPase,-,5–20 µM
O=C(O)c1ccc2c(c1)nc(-c1ccc3nc(-c4ccccc4-c4ccc(Cl)cc4)c(-c4ccccc4)cc3c1)n2C1CCCCC1,inhibition,NS5B polymerase,33 µM,99.15%
O=C(O)c1cc2nc(-c3ccc(F)cc3)cc(-c3ccc(Cl)cc3)n2n1,IC50,RNA-dependent RNA polymerase,-,>10 µM
O=C(O)c1ccc2c(c1)nc(-c1ccc3nc(-c4ccccc4)cc(Nc4ccccc4)c3c1)n2C1CCCCC1,inhibition,NS5B polymerase,33 µM,92.47%
O=C(O)/C=C/c1ccc(NC(=O)C2(NC(=O)c3ccc4c(c3)nc(-c3ccoc3)n4C3CCCCC3)CCCCC2)cc1,IC50,NS5B polymerase,-,<0.5 µM
O=C(O)c1cc2nc(-c3ccc(Cl)cc3Cl)cc(-c3cccc(Cl)c3)n2n1,IC50,RNA-dependent RNA polymerase,-,>10 µM
O=C(O)c1ccc2c(c1)nc(-c1ccc3nc(-c4ccnc5ccccc45)ccc3c1)n2C1CCCCC1,inhibition,NS5B polymerase,33 µM,102%
O=C(O)c1nc(-c2ccsc2)[nH]c(=O)c1O,IC50,HCV polymerase,-,<25 µM
O=C(O)CCNc1cc(-c2ccc(Cl)cc2)nc2cc(C(=O)O)nn12,IC50,RNA-dependent RNA polymerase,-,>10 µM
CNC(=O)c1c(-c2ccc(F)cc2)oc2cc(N(C)S(=O)(=O)CC3CC3)c(OC(C)C)cc12,IC50,Nonstructural protein 5B,-,≤0.5 µM
CC(=O)N(Cc1ccc(F)cc1F)c1cc(-c2ccccc2)sc1C(=O)O,IC50,NS3 ATPase,-,5–20 µM
O=C(NC(Cc1c[nH]c2ccc(O)cc12)C(=O)O)c1ccc2c(c1)nc(-c1ccc3ncc(-c4ccccc4)nc3c1)n2C1CCCCC1,inhibition,NS5B polymerase,100 µM,99.25%
CC[C@@H](C=O)NC(=O)[C@@H]1C[C@@H](OCc2cccc(C#N)c2)CN1C(=O)[C@@H](NC(=O)[C@@H](NC(=O)c1cnccn1)C(C)C)C(C)C,Ki,NS3 protease,-,1–100 µM
COCc1cc(=O)oc2cc(NC(=O)C3(NC(=O)c4ccc5c(c4)nc(-c4ccoc4)n5C4CCCCC4)CCCC3)ccc12,IC50,NS5B polymerase,-,0.5–5 µM
CN(C(=O)c1sc2ccccc2c1Cl)c1cc(-c2ccccc2)sc1C(=O)O,IC50,NS3 ATPase,-,5–20 µM
CCC(C=O)NC(=O)C1CC(OCc2ccc3ccccc3c2)CN1C(=O)C(NC(=O)C(NC(=O)c1cnccn1)C(C)C)C(C)C,Ki,NS3 protease,-,1–100 µM
CN(C)CCNC(=O)c1ccc(-c2ccc(Cl)cc2)c(-c2ccc3cc(-c4nc5cc(C(=O)O)ccc5n4C4CCCCC4)ccc3n2)c1,inhibition,NS5B polymerase,33 µM,98.35%
CC(C)C[C@H](NC(=O)[C@H](CCC(=O)O)NC(=O)[C@@H](NC(=O)CCC(=O)O)C1CCCCC1)C(=O)NC1(C(=O)O)CC1,IC50,Nonstructural protein 3 NTPase/helicase,-,>83.5 µM
FC(F)(F)c1cccc(COc2ccc(-c3cnc4c(-c5nn[nH]n5)cnn4c3C3CCCCC3)cc2)c1,IC50,RNA-dependent RNA polymerase,-,1–10 µM
O=C(O)CCC(=O)N[C@H](C(=O)N[C@@H](CCC(=O)O)C(=O)N[C@H](C(=O)N[C@@H](CS)C(=O)O)C1CCCCC1)C(c1ccccc1)c1ccccc1,inhibition,Nonstructural protein 3 NTPase/helicase,16.7 µM,25%
O=C(O)c1cnn2c(C3CCCCC3)c(-c3cccc(Oc4cccc(OC(F)(F)F)c4)c3)cnc12,IC50,RNA-dependent RNA polymerase,-,>10 µM
O=C(NCc1ccccc1-c1ccccc1)Nc1ccccc1-c1nc(C(=O)O)c(O)c(=O)[nH]1,IC50,HCV polymerase,-,<100 µM
NC(=O)CC[C@H](NC(=O)[C@@H](NC(=O)CCC(=O)O)C1CCCCC1)C(=O)N[C@H](C(=O)N[C@@H](CS)C(=O)O)c1ccc(-c2ccccc2)cc1,IC50,Nonstructural protein 3 NTPase/helicase,-,<16.7 µM
CC(NC(=O)c1ccc2c(c1)nc(-c1ccoc1)n2C1CCCCC1)C(=O)Nc1cccc(CC(=O)O)c1,IC50,NS5B polymerase,-,0.5–5 µM
O=C(NCc1cccc(CO)c1)Nc1ccsc1-c1nc(C(=O)O)c(O)c(=O)[nH]1,IC50,HCV polymerase,-,<25 µM
Cc1ccc(C(=O)Nc2cc(-c3ccccc3)sc2C(=O)O)cc1,IC50,NS3 ATPase,-,5–20 µM
O=C(O)CCC(=O)N[C@H](C(=O)N[C@@H](CCC(=O)O)C(=O)N[C@@H](CCC(=O)O)C(=O)N[C@@H](CS)C(=O)O)C(c1ccccc1)c1ccccc1,inhibition,Nonstructural protein 3 NTPase/helicase,1.67 µM,41%
O=C(Nc1cscc1-c1nc(C(=O)O)c(O)c(=O)[nH]1)NS(=O)(=O)c1ccccc1Cl,IC50,HCV polymerase,-,<25 µM
CC[C@@H](C=O)NC(=O)[C@@H]1C[C@@H](OCc2ccc(F)c(F)c2)CN1C(=O)[C@@H](NC(=O)[C@@H](NC(=O)c1cnccn1)C(C)C)C(C)C,Ki,NS3 protease,-,1–100 µM
CC(C)C[C@H](NC(=O)CCC(=O)O)C(=O)N[C@@H](CCC(=O)O)C(=O)N[C@@H](CCC(=O)O)C(=O)NC1(C(=O)O)CC1,inhibition,Nonstructural protein 3 NTPase/helicase,167 µM,21%
O=C(O)c1sc(-c2ccccc2)cc1N(C(=O)c1ccc(Cl)cc1Cl)c1ccccc1,IC50,NS3 ATPase,-,<5 µM
COc1ccccc1COC(=O)Nc1ccsc1-c1nc(C(=O)O)c(O)c(=O)[nH]1,IC50,HCV polymerase,-,<25 µM
N[C@H](C(=O)N[C@@H](CCC(=O)O)C(=O)N[C@@H](CCC(=O)O)C(=O)N[C@@H](CS)C(=O)O)C1CCCCC1,IC50,Nonstructural protein 3 NTPase/helicase,-,>167 µM
CNC(=O)c1c(-c2ccc(F)cc2)oc2cc(-c3cnco3)c(OC(C)C)cc12,IC50,Nonstructural protein 5B,-,≤0.5 µM
CCN(C(=O)C1CCCC1)c1cc(-c2ccccc2)sc1C(=O)O,IC50,NS3 ATPase,-,5–20 µM
CNC(=O)c1c(-c2ccc(F)cc2F)oc2ccc(OC(C)C)cc12,IC50,Nonstructural protein 5B,-,≤0.5 µM
O=C(NC1CCC(N(C(=O)c2ccc(Cl)cc2Cl)c2cc(-c3ccccc3)sc2C(=O)O)CC1)OCc1ccccc1,IC50,NS3 ATPase,-,<5 µM

A second listing of 6 rows from above:

compound	read-out	protein	tested at	value
O=C(O)CCCC(=O)N[C@H](C(=O)N[C@@H](CCC(=O)O)C(=O)N[C@@H](CCC(=O)O)C(=O)NC1(C(=O)O)CC1)C(c1ccccc1)c1ccccc1	IC50	Nonstructural protein 3 NTPase/helicase	-	>83.5 µM
O=C(NC(Cc1c[nH]c2ccc(O)cc12)C(=O)O)c1ccc2c(c1)nc(-c1ccc3ncc(-c4ccccc4)nc3c1)n2C1CCCCC1	inhibition	NS5B polymerase	100 µM	99.25%
O=C(O)c1ccc2c(c1)nc(-c1ccc3nc(-c4cc(O)cc(O)c4)ccc3c1)n2C1CCCCC1	inhibition	NS5B polymerase	33 µM	94.33%
CC(C)C[C@H](NC(=O)[C@H](CCC(=O)O)NC(=O)[C@@H](NC(=O)CCC(=O)O)C1CCCCC1)C(=O)NC1(C(=O)O)CC1	IC50	Nonstructural protein 3 NTPase/helicase	-	>83.5 µM
CC(C)C[C@H](NC(=O)CCC(=O)O)C(=O)N[C@@H](CCC(=O)O)C(=O)N[C@@H](CCC(=O)O)C(=O)NC1(C(=O)O)CC1	inhibition	Nonstructural protein 3 NTPase/helicase	167 µM	21%
CN(C(=O)c1sc2ccccc2c1Cl)c1cc(-c2ccccc2)sc1C(=O)O	IC50	NS3 ATPase	-	5–20 µM